Experimental data as given in patent publication US20220390458A1, “FLUORESCENT PROBE AND APPLICATIONS THEREOF” (CENTRE NATIONAL DE LA RECHERCHE SCIENTIFIQUE (CNRS), priority 2019, published 2022).

How the values were obtained:
[1] = test system: influenza virus membranes; test: Labeling of viral membranes and GP calculation
HMEC cells = test: Confocal microscopy labelling of cell membranes and GP determination; format: cell-based, Human
[2] = DIOLL probe fluorescence-based liposome quantification
Protocol: A POPC solution of known concentration (100 μg.ml^−1) was used as standard. Increasing volumes of the standard solution were diluted with buffer in a 96 well plate (Nunc). The final volume per well was 200 μl and lipid concentrations between 0 and 80 μg.ml^−1 were used. Samples were prepared in parallel to a final volume of 200 μl per well.
A constant volume of DIOLL solution in ethanol (5 μl) was added in each well to obtain a final DIOLL concentration of 2 μM. The volume of ethanol added represented 2.5% of the final volume and had no effect on liposome integrity. The plate was incubated at room temperature for 10 min. Fluorescence emission spectra were recorded between 420 nm and 600 nm for an excitation wavelength of 390 nm with a TECAN InfiniteM200 plate reader. Spectra were recorded at 21° C.
The surface under the spectrum was calculated for each condition using an Excel complementary function, IntegralP (www.fordom.free.fr) which allows one to calculate the integral of a function when discrete data sets are available. Maximum fluorescence intensities or surfaces under the curve were plotted as a function of the lipid concentration to obtain the standard curve. They both show a hyperbolic variation and the equation of the standard curve was obtained using a hyperbolic fit y=ax/(x+b) (SigmaPlot). The calculation of the a and b coefficients allowed us to determine unknown concentrations in the samples. As various volumes were used for the assays, the concentration of the stock liposome solution was presented taking into account various dilution factors. Measurements were performed in triplicates.
For the estimation of the limit of detection (LOD) and of quantification (LOQ), the fluorescence spectra of 2 μM DIOLL in aqueous buffer were recorded in the absence of liposomes and the surface under the curve was calculated to estimate the blank value on 5 independent measurements. LOD and LOQ were calculated as 3 times or 10 times the standard deviation of the blank, respectively.
Sensitivity was estimated from the slope of the linear fit for low liposome concentrations. As the fluorescence intensity is dependent on the instrument used, in this study the inventors estimated that an increase of 100 A.U. in the fluorescence intensity obtained with TECAN InfiniteM200 was significant.
To conclude upon the repeatability of the method, the coefficient of variation (CV) was calculated as the percentage of the standard deviation on the mean of 5 independent measurements. Accuracy was deduced from the difference between the concentrations obtained with the DIOLL-based method and a standard method of phospholipid quantification, in our case the Stewart method.

CCCCCCCCCCCC(=O)c1ccc2cc(N(C)CC(O)CO)ccc2c1 (stereo not drawn) [DIOLL, 1-(6-((2,3-dihydroxypropyl)(methyl)amino)naphthalen-2-yl)dodecan-1-one]
GP ([1]; 21° C.): 0.315
GP ([1]; 37° C.): 0.096
labelling of cell membranes (HMEC cells; HMEC cells incubated 48 h, excitation 405 nm): labeled uniformly all cell membranes
GP value (HMEC cells; endoplasmic reticulum membranes of HMEC cells): −0.14±0.06
GP value (HMEC cells; mitochondria membranes of HMEC cells): −0.18±0.02
GP value (HMEC cells; nucleus membranes of HMEC cells): −019±0.04
GP value (HMEC cells; plasma membrane structures of HMEC cells): 0.05±0.03
liposome concentration at which fluorescence seems to reach saturation ([2]; 2 μM DIOLL, POPC liposomes): over 50 μg.ml^−1
concentration of a POPC liposome solution determined with DIOLL ([2]; 3 replicates): 914 ± 56 µg/mL
Repeatability ([2]; POPC liposome solution, replicates): 6% and 1.2%
LOD ([2]; POPC standard curve, 2 μM DIOLL, 3 times SD of blank): 0.4 µg/mL
LOQ ([2]; POPC standard curve, 2 μM DIOLL, 10 times SD of blank): 1.2 µg/mL
Sensitivity ([2]; TECAN InfiniteM200): 10 000 A.U
Sensitivity (concentration printed in the same cell) ([2]; TECAN InfiniteM200): 0.4 µg/mL
slope of the linear part ([2]; TECAN InfiniteM200): 10^5 A.U per μg.ml^−1
liposome concentration up to which sensitivity was good ([2]; above it fluorescence reaches a plateau): up to 40 μg.ml^−1
Accuracy (difference to Stewart method) ([2]; same POPC liposome solution): 1.2% and 6.0%
detectable variation in liposome concentration ([2]; sensitivity limit of TECAN InfiniteM200 100 A.U.): 1 ng/mL

Values joined by “and” are separate entries in the source; they are usually repeats but may differ in a detail not shown here. Equal entries are not always repeated.
